Results reported in US20220089698A1, “ANTIBODIES THAT TARGET HIV GP120 AND METHODS OF USE” (published 2022).

Columns and labels:
Assay in all cases: cell-based or functional assay
[1] = molecular target: HIV-1 envelope glycoprotein (gp120) of virus 7141 (HIV-1)
[2] = molecular target: HIV-1 envelope glycoprotein (gp120) of virus VS001 (HIV-1)
[3] = molecular target: HIV-1 envelope glycoprotein (gp120) of virus 92US727 (HIV-1)

Row | Binder | Neutralization IC50 [1] [µg/mL] | Neutralization IC50 [2] [µg/mL] | Neutralization IC50 [3] [µg/mL]
1 | 3.1.16-1 (antibody, human IgG1, kappa) heavy: QVQLLQSGAAVTKPGASVRVSCEASGYNIRDYFIHWWRQAPGQGLQWVGWINPKTGQPNNPRQFQGRVSLTRHASWDFDTFSFYMDLKALRSDDTAVYFCARQRSDYWDFDVWGSGTQVTVSSASTKGPSVFPLAPSSKSTSGGTAALGCLVKDYFPEPVTVSWNSGALTSGVHTFPAVLQSSGLYSLSSVVTVPSSSLGTQTYICNVNHKPSNTKVDKKVEPKSCDKTHTCPPCPAPELLAGPDVFLFPPKPKDTLMISRTPEVTCVVVDVSHEDPEVKFNWYVDGVEVHNAKTKPREEQYNSTYRVVSVLTVLHQDWLNGKEYKCKVSNKALPLPEEKTISKAKGQPREPQVYTLPPSREEMTKNQVSLTCLVKGFYPSDIAVEWESNGQPENNYKTTPPVLDSDGSFFLYSKLTVDKSRWQQGNVFSCSVLHEALHSHYTQKSLSLSPGK light: not shown | 39 | 2.15 | > 43
2 | 1.1.120-1 (antibody, human IgG1, kappa) heavy: QVQLLQSGAAVTKPGASVRVSCEASGYNIRDYFIHWWRQAPGQGLQWVGWINPKTGQPNNPRQFQGRVSLTRHASWDFDTFSFYMDLKALRSDDTAVYFCARQRSDYWDFDVWGSGTQVTVSSASTKGPSVFPLAPSSKSTSGGTAALGCLVKDYFPEPVTVSWNSGALTSGVHTFPAVLQSSGLYSLSSVVTVPSSSLGTQTYICNVNHKPSNTKVDKKVEPKSCDKTHTCPPCPAPELLAGPDVFLFPPKPKDTLMISRTPEVTCVVVDVSHEDPEVKFNWYVDGVEVHNAKTKPREEQYNSTYRVVSVLTVLHQDWLNGKEYKCKVSNKALPLPEEKTISKAKGQPREPQVYTLPPSREEMTKNQVSLTCLVKGFYPSDIAVEWESNGQPENNYKTTPPVLDSDGSFFLYSKLTVDKSRWQQGNVFSCSVLHEALHSHYTQKSLSLSPGK light: not shown | 17.8 | 0.88 | > 32.9
3 | 3.1.19-1 (antibody, human IgG1, kappa) heavy: QVQLLQSGAAVTKPGASVRVSCEASGYNIRDYFIHWWRQAPGQGLQWVGWINPKTGQPNNPRQFQGRVSLTRHASWDFDTFSFYMDLKALRSDDTAVYFCARQRSDYWDFDVWGSGTQVTVSSASTKGPSVFPLAPSSKSTSGGTAALGCLVKDYFPEPVTVSWNSGALTSGVHTFPAVLQSSGLYSLSSVVTVPSSSLGTQTYICNVNHKPSNTKVDKKVEPKSCDKTHTCPPCPAPELLAGPDVFLFPPKPKDTLMISRTPEVTCVVVDVSHEDPEVKFNWYVDGVEVHNAKTKPREEQYNSTYRVVSVLTVLHQDWLNGKEYKCKVSNKALPLPEEKTISKAKGQPREPQVYTLPPSREEMTKNQVSLTCLVKGFYPSDIAVEWESNGQPENNYKTTPPVLDSDGSFFLYSKLTVDKSRWQQGNVFSCSVLHEALHSHYTQKSLSLSPGK light: not shown | 23.9 | 0.57 | > 50
4 | 1.1.121-1 (antibody, human IgG1, kappa) heavy: QVQLLQSGAAVTKPGASVRVSCEASGYNIRDYFIHWWRQAPGQGLQWVGWINPKTGQPNNPRQFQGRVSLTRHASWDFDTFSFYMDLKALRSDDTAVYFCARQRSDYWDFDVWGSGTQVTVSSASTKGPSVFPLAPSSKSTSGGTAALGCLVKDYFPEPVTVSWNSGALTSGVHTFPAVLQSSGLYSLSSVVTVPSSSLGTQTYICNVNHKPSNTKVDKKVEPKSCDKTHTCPPCPAPELLAGPDVFLFPPKPKDTLMISRTPEVTCVVVDVSHEDPEVKFNWYVDGVEVHNAKTKPREEQYNSTYRVVSVLTVLHQDWLNGKEYKCKVSNKALPLPEEKTISKAKGQPREPQVYTLPPSREEMTKNQVSLTCLVKGFYPSDIAVEWESNGQPENNYKTTPPVLDSDGSFFLYSKLTVDKSRWQQGNVFSCSVLHEALHSHYTQKSLSLSPGK light: not shown | 28.7 | 1.3 | > 37
5 | 3.1.20-1 (antibody, human IgG1, kappa) heavy: QVQLLQSGAAVTKPGASVRVSCEASGYNIRDYFIHWWRQAPGQGLQWVGWINPKTGQPNNPRQFQGRVSLTRHASWDFDTFSFYMDLKALRSDDTAVYFCARQRSDYWDFDVWGSGTQVTVSSASTKGPSVFPLAPSSKSTSGGTAALGCLVKDYFPEPVTVSWNSGALTSGVHTFPAVLQSSGLYSLSSVVTVPSSSLGTQTYICNVNHKPSNTKVDKKVEPKSCDKTHTCPPCPAPELLAGPDVFLFPPKPKDTLMISRTPEVTCVVVDVSHEDPEVKFNWYVDGVEVHNAKTKPREEQYNSTYRVVSVLTVLHQDWLNGKEYKCKVSNKALPLPEEKTISKAKGQPREPQVYTLPPSREEMTKNQVSLTCLVKGFYPSDIAVEWESNGQPENNYKTTPPVLDSDGSFFLYSKLTVDKSRWQQGNVFSCSVLHEALHSHYTQKSLSLSPGK light: not shown | 22.1 | 0.95 | > 50
6 | 1.1.122-1 (antibody, human IgG1, kappa) heavy: QVQLLQSGAAVTKPGASVRVSCEASGYNIRDYFIHWWRQAPGQGLQWVGWINPKTGQPNNPRQFQGRVSLTRHASWDFDTFSFYMDLKALRSDDTAVYFCARQRSDYWDFDVWGSGTQVTVSSASTKGPSVFPLAPSSKSTSGGTAALGCLVKDYFPEPVTVSWNSGALTSGVHTFPAVLQSSGLYSLSSVVTVPSSSLGTQTYICNVNHKPSNTKVDKKVEPKSCDKTHTCPPCPAPELLAGPDVFLFPPKPKDTLMISRTPEVTCVVVDVSHEDPEVKFNWYVDGVEVHNAKTKPREEQYNSTYRVVSVLTVLHQDWLNGKEYKCKVSNKALPLPEEKTISKAKGQPREPQVYTLPPSREEMTKNQVSLTCLVKGFYPSDIAVEWESNGQPENNYKTTPPVLDSDGSFFLYSKLTVDKSRWQQGNVFSCSVLHEALHSHYTQKSLSLSPGK light: not shown | 6.79 | 0.32 | > 42.4
7 | 1.1.123-1 (antibody, human IgG1, kappa) heavy: QVQLLQSGAAVTKPGASVRVSCEASGYNIRDYFIHWWRQAPGQGLQWVGWINPKTGQPNNPRQFQGRVSLTRHASWDFDTFSFYMDLKALRSDDTAVYFCARQRSDYWDFDVWGSGTQVTVSSASTKGPSVFPLAPSSKSTSGGTAALGCLVKDYFPEPVTVSWNSGALTSGVHTFPAVLQSSGLYSLSSVVTVPSSSLGTQTYICNVNHKPSNTKVDKKVEPKSCDKTHTCPPCPAPELLAGPDVFLFPPKPKDTLMISRTPEVTCVVVDVSHEDPEVKFNWYVDGVEVHNAKTKPREEQYNSTYRVVSVLTVLHQDWLNGKEYKCKVSNKALPLPEEKTISKAKGQPREPQVYTLPPSREEMTKNQVSLTCLVKGFYPSDIAVEWESNGQPENNYKTTPPVLDSDGSFFLYSKLTVDKSRWQQGNVFSCSVLHEALHSHYTQKSLSLSPGK light: not shown | 11.2 | 0.23 | > 43.8
8 | 1.1.124-1 (antibody, human IgG1, kappa) heavy: QVQLLQSGAAVTKPGASVRVSCEASGYNIRDYFIHWWRQAPGQGLQWVGWINPKTGQPNNPRQFQGRVSLTRHASWDFDTFSFYMDLKALRSDDTAVYFCARQRSDYWDFDVWGSGTQVTVSSASTKGPSVFPLAPSSKSTSGGTAALGCLVKDYFPEPVTVSWNSGALTSGVHTFPAVLQSSGLYSLSSVVTVPSSSLGTQTYICNVNHKPSNTKVDKKVEPKSCDKTHTCPPCPAPELLAGPDVFLFPPKPKDTLMISRTPEVTCVVVDVSHEDPEVKFNWYVDGVEVHNAKTKPREEQYNSTYRVVSVLTVLHQDWLNGKEYKCKVSNKALPLPEEKTISKAKGQPREPQVYTLPPSREEMTKNQVSLTCLVKGFYPSDIAVEWESNGQPENNYKTTPPVLDSDGSFFLYSKLTVDKSRWQQGNVFSCSVLHEALHSHYTQKSLSLSPGK light: not shown | 9.87 | 0.3 | > 25.4
9 | 1.1.125-1 (antibody, human IgG1, kappa) heavy: QVQLLQSGAAVTKPGASVRVSCEASGYNIRDYFIHWWRQAPGQGLQWVGWINPKTGQPNNPRQFQGRVSLTRHASWDFDTFSFYMDLKALRSDDTAVYFCARQRSDYWDFDVWGSGTQVTVSSASTKGPSVFPLAPSSKSTSGGTAALGCLVKDYFPEPVTVSWNSGALTSGVHTFPAVLQSSGLYSLSSVVTVPSSSLGTQTYICNVNHKPSNTKVDKKVEPKSCDKTHTCPPCPAPELLAGPDVFLFPPKPKDTLMISRTPEVTCVVVDVSHEDPEVKFNWYVDGVEVHNAKTKPREEQYNSTYRVVSVLTVLHQDWLNGKEYKCKVSNKALPLPEEKTISKAKGQPREPQVYTLPPSREEMTKNQVSLTCLVKGFYPSDIAVEWESNGQPENNYKTTPPVLDSDGSFFLYSKLTVDKSRWQQGNVFSCSVLHEALHSHYTQKSLSLSPGK light: not shown | 7.69 | 0.37 | > 50
10 | 1.1.126-1 (antibody, human IgG1, kappa) heavy: QVQLLQSGAAVTKPGASVRVSCEASGYNIRDYFIHWWRQAPGQGLQWVGWINPKTGQPNNPRQFQGRVSLTRHASWDFDTFSFYMDLKALRSDDTAVYFCARQRSDYWDFDVWGSGTQVTVSSASTKGPSVFPLAPSSKSTSGGTAALGCLVKDYFPEPVTVSWNSGALTSGVHTFPAVLQSSGLYSLSSVVTVPSSSLGTQTYICNVNHKPSNTKVDKKVEPKSCDKTHTCPPCPAPELLAGPDVFLFPPKPKDTLMISRTPEVTCVVVDVSHEDPEVKFNWYVDGVEVHNAKTKPREEQYNSTYRVVSVLTVLHQDWLNGKEYKCKVSNKALPLPEEKTISKAKGQPREPQVYTLPPSREEMTKNQVSLTCLVKGFYPSDIAVEWESNGQPENNYKTTPPVLDSDGSFFLYSKLTVDKSRWQQGNVFSCSVLHEALHSHYTQKSLSLSPGK light: not shown | 6.49 | 0.35 | > 50
11 | 1.1.127-1 (antibody, human IgG1, kappa) heavy: QVQLLQSGAAVTKPGASVRVSCEASGYNIRDYFIHWWRQAPGQGLQWVGWINPKTGQPNNPRQFQGRVSLTRHASWDFDTFSFYMDLKALRSDDTAVYFCARQRSDYWDFDVWGSGTQVTVSSASTKGPSVFPLAPSSKSTSGGTAALGCLVKDYFPEPVTVSWNSGALTSGVHTFPAVLQSSGLYSLSSVVTVPSSSLGTQTYICNVNHKPSNTKVDKKVEPKSCDKTHTCPPCPAPELLAGPDVFLFPPKPKDTLMISRTPEVTCVVVDVSHEDPEVKFNWYVDGVEVHNAKTKPREEQYNSTYRVVSVLTVLHQDWLNGKEYKCKVSNKALPLPEEKTISKAKGQPREPQVYTLPPSREEMTKNQVSLTCLVKGFYPSDIAVEWESNGQPENNYKTTPPVLDSDGSFFLYSKLTVDKSRWQQGNVFSCSVLHEALHSHYTQKSLSLSPGK light: not shown | 5.78 | 0.18 | > 23
